Results of unrelated studies side by side (data: NIAID ChemDB).

Common to all: tests on isolated targets; agent: HIV-1; target: Reverse transcriptase; measure: IC50

Conditions beyond the fields shown may differ between rows. Blank or dashed fields: not listed here. ICn is the concentration giving n% inhibition.

| compound | strain or isolate | changes | method | result |
|---|---|---|---|---|
| C/C=C/CSc1cc(NC(=S)c2ccsc2C)ccc1Cl | - | RT-E138K | - | 3.8 µM |
| C[C@H](NC(=S)Nc1ccccn1)c1cccc2ccccc12 | - | - | - | >100 µM |
| CCC(C)Oc1nc(Cc2cc(C)cc(C)c2)c(C)c(=O)[nH]1 | IIIB | - | nucleotide incorporation | 2 µM |
| COc1ccccc1N1CCN(C(=O)c2cc3cc4c(cc3[nH]2)OCO4)CC1 | IIIB | RT-P236L | - | >>50 µM |
| C/C=C/C=C1\C=Cc2c(C(=O)OC)coc(=O)c21 | - | - | nucleotide incorporation | 45 µg/mL |
| Cc1ccc(NC(=S)N[C@@H](C)c2ccccc2)nc1 | - | - | - | >100 µM |
| Cc1cccc(Cc2nc(OCC(C)C)[nH]c(=O)c2C)c1 | IIIB | - | nucleotide incorporation | 5.5 µM |
| Cc1cccc(NC(=S)N[C@H](C)c2cccc3ccccc23)n1 | - | - | - | 1.03 µM |
| O=C(O[C@@H]1Cc2c(O)cc(O)cc2O[C@@H]1c1cc(O)c(O)c(O)c1)c1cc(O)c(O)c(O)c1 | - | - | - | 0.02 µM |
| CCN1c2ncc(CCOc3ccncc3)cc2C(=O)N(C)c2ccc(Cl)nc21 | WT | - | nucleotide incorporation / radiometric | <1 µM |
| COc1ccc2c(c1)N(C(=O)OC(C)C)[C@@H](CSC)C(=S)N2 | - | RT-Y181I | scintillation proximity / radiometric | 3.9 µM |
| Cc1c(Sc2ccccc2)n(COCCO)c(=O)[nH]c1=O | - | - | nucleotide incorporation | 37 µM |
| Cc1cccc(Cc2cc(=O)[nH]c(=O)[nH]2)c1 | IIIB | - | nucleotide incorporation | >10 µM |
| Cc1cccc(NC(=S)NC[C@@H](C)c2ccccc2)n1 | - | - | - | >100 µM |
| CCOc1ccccc1N1CCN(C(=O)c2cc3ccccc3[nH]2)CC1 | IIIB | RT-Y181C | - | >50 µM |
| Cc1cc(C)nc(NC(=S)N[C@@H](C)c2cccc3ccccc23)c1 | - | - | - | >100 µM |
| Cc1cc(C)c(-n2nnnc2SCC(=O)Nc2cccc(Cl)c2F)c(C)c1 | - | - | nucleotide incorporation / radiometric | <2 µM |
| Cc1cn([C@@H]2O[C@H](CO[Si](C)(C)C(C)(C)C)C3(OS(=O)(=O)C=C3N)[C@H]2O[Si](C)(C)C(C)(C)C)c(=O)n(C)c1=O | - | - | - | 2.6 µM |
| CCN1c2ncc(CNc3cccc([N+](=O)[O-])c3)cc2C(=O)N(C)c2ccc(Cl)nc21 | - | RT-Y181C | nucleotide incorporation / radiometric | <1 µM |
| Cc1cccc(Cl)c1-n1nnnc1SCC(=O)Nc1ccccc1[N+](=O)[O-] | - | - | nucleotide incorporation / radiometric | <2 µM |
| C[C@@H](NC(=S)Nc1ccccn1)c1cccc2ccccc12 | - | - | - | 1.21 µM |
| CCOc1ccccc1N1CCN(C(=O)c2cc3cc4c(cc3[nH]2)OCO4)CC1 | IIIB | - | RT activity | 1.4 µM |
| N#Cc1ccc(NC(=S)N[C@@H]2[C@@H]3COc4c(F)ccc(F)c4[C@@H]32)nc1 | - | Y181C | scintillation proximity / radiometric | 0.016 µM |
| Cc1cc(C)c(-n2nnnc2SCC(=O)Nc2ccc([N+](=O)[O-])cc2C)c(C)c1 | - | - | nucleotide incorporation / radiometric | <2 µM |
| CCC1(c2cccc(Cl)c2)Oc2ccccc2-n2cccc2C1=O | - | RT-Y188L | nucleotide incorporation / radiometric | 0.5 µM |
| CC(C)Nc1cccnc1N1CCN(C(=O)c2cc3cc4c(cc3[nH]2)OCO4)CC1 | IIIB | RT-P236L | - | 3.3 µM |
| CCC1(c2cccc(Cl)c2)Cc2ccccc2-n2cccc2C1=O | - | RT-Y188L | nucleotide incorporation / radiometric | >10 µM |
| Cc1cc(C)c(-n2nnnc2SCC(=O)Nc2ccc(F)cc2[N+](=O)[O-])c(C)c1 | - | - | nucleotide incorporation / radiometric | <2 µM |
| COc1ccc2nc(NC(=S)N[C@@H](C)c3ccccc3)sc2c1 | - | - | - | >100 µM |
| CC(C)=CCN1Cc2cccc3[nH]c(=S)n(c23)C[C@@H]1C | - | - | - | 0.35 µM |
| Cc1cccc(Cc2cc(=O)[nH]c(OC(C)C)n2)c1 | IIIB | - | nucleotide incorporation | 1 µM |
| CC(=O)c1sccc1NC(=O)CSc1nnnn1-c1c(C)cc(C)cc1C | - | - | nucleotide incorporation / radiometric | <2 µM |
| C[C@@H](CNC(=S)Nc1ccc(Cl)cn1)c1ccccc1 | - | - | - | 0.1 µM |
| Cc1cc(C)c(-n2nnnc2SCC(=O)Nc2cccc3c2C(=O)NC3=O)c(C)c1 | - | - | nucleotide incorporation / radiometric | <2 µM |
| Cc1occc1C(=S)Nc1ccc(Cl)c(/C=N/OC(C)(C)C)c1 | - | RT-Y181I | - | 27.8 µM |
| Cc1c(Sc2ccccc2)n(COCCO)c(=O)[nH]c1=O | - | RT-K103N | - | >5 µM |
| CCN1c2ncc(COc3ccc(F)cc3)cc2C(=O)N(C)c2ccc(Cl)nc21 | - | RT-Y181C | nucleotide incorporation / radiometric | <1 µM |
| CCOc1cccc(C2(CC)Oc3ccccc3-n3cccc3C2=O)c1 | - | RT-L100I | nucleotide incorporation / radiometric | 0.2 µM |
| CCN1c2ncc(CCc3ccccc3)cc2C(=O)Nc2c(C)ccnc21 | - | RT-Y181C | nucleotide incorporation / radiometric | <1 µM |
| CN(C)c1ccc(-n2nnnc2SCC(=O)Nc2ccccc2Cl)cc1 | - | - | nucleotide incorporation / radiometric | <2 µM |
| CCN1c2ncc(CCOc3ccncc3)cc2C(=O)N(C)c2cccnc21 | - | RT-Y181C | nucleotide incorporation / radiometric | <1 µM |
| Cc1cc(C)cc(S(=O)(=O)c2c(C(=O)NNCCO)[nH]c3ccc(Cl)cc23)c1 | - | RT-Y188L | nucleotide incorporation / radiometric | >40 µM |
| CCN1c2ncc(C=O)cc2C(=O)N(C)c2ccc(Cl)nc21 | WT | - | nucleotide incorporation / radiometric | >1 µM |
| Cc1cn([C@H]2CC[C@@H](COP(=O)(O)OP(=O)(O)OP(=O)(O)O)O2)c(=O)[nH]c1=O | - | RT-I135M | nucleotide incorporation / radiometric | 0.09 µM |
| CCC1(c2ccc(I)cc2)Oc2ccccc2-n2cccc2C1=O | - | RT-L100I | nucleotide incorporation / radiometric | 1.8 µM |
| CCN1c2ncc(Cc3cccc(O)c3)cc2C(=O)N(C)c2ccc(Cl)nc21 | WT | - | nucleotide incorporation / radiometric | <1 µM |
| Cc1ccc(NC(=S)NC[C@H](C)c2ccccc2)nc1 | - | - | - | 0.52 µM |
| CC(=O)Nc1ccc(Cl)c(NC(=O)CSc2nnnn2-c2c(C)cc(C)cc2C)c1 | - | - | nucleotide incorporation / radiometric | <2 µM |

For reference, 3 entries again:

compound,strain or isolate,changes,method,result
Cc1ccc(NC(=S)N[C@@H](C)c2ccccc2)nc1,-,-,-,>100 µM
CCC1(c2cccc(Cl)c2)Cc2ccccc2-n2cccc2C1=O,-,RT-Y188L,nucleotide incorporation / radiometric,>10 µM
N#Cc1ccc(NC(=S)N[C@@H]2[C@@H]3COc4c(F)ccc(F)c4[C@@H]32)nc1,-,Y181C,scintillation proximity / radiometric,0.016 µM